A mixed list of measured activities; the numbers were collected in NIAID ChemDB.

All rows: tests on isolated targets

Inhibition is in % at the dose shown (toxicity tests: loss of growth or viability).

{"SMILES": "O=C(NCc1cc2ccccc2s1)Nc1ccsc1-c1nc(C(=O)O)c(O)c(=O)[nH]1", "target": "HCV polymerase", "endpoint": "IC50", "organism": "Hepatitis C virus", "value": "<25 µM"}
{"SMILES": "O=C(O)c1cc2nc(-c3ccc(C(F)(F)F)cc3)cc(-c3cccc(OCc4ccccc4)c3)n2n1", "target": "RNA-dependent RNA polymerase", "endpoint": "IC50", "organism": "Hepatitis C virus", "value": ">10 µM"}
{"SMILES": "COc1nc(Nc2ccc3[nH]ncc3c2)nc(N2CCN(CCO)CC2)n1", "target": "DNA polymerase", "tested at": "0.1 µg/mL", "endpoint": "inhibition", "organism": "Hepatitis B virus", "value": "26%"}
{"SMILES": "Cc1ccc(C(=O)N(c2cc(-c3cccc(C)c3)sc2C(=O)O)C(C)C)cc1", "target": "NS3 ATPase", "endpoint": "IC50", "organism": "Hepatitis C virus", "value": "<5 µM"}
{"SMILES": "Cc1ccccc1COC(=O)Nc1ccsc1-c1nc(C(=O)O)c(O)c(=O)[nH]1", "target": "HCV polymerase", "endpoint": "IC50", "organism": "Hepatitis C virus", "value": "<25 µM"}
{"SMILES": "Cc1ccc(C(=O)N(C)c2cc(-c3ccc(CO)cc3)sc2C(=O)O)cc1", "target": "NS3 ATPase", "endpoint": "IC50", "organism": "Hepatitis C virus", "value": "5–20 µM"}
{"SMILES": "COc1nc(NCCCN2CCOCC2)nc(Nc2ccc3cn[nH]c3c2)n1", "target": "DNA polymerase", "tested at": "0.1 µg/mL", "endpoint": "inhibition", "organism": "Hepatitis B virus", "value": "56%"}
{"SMILES": "O=C(O)c1cnn2c(C3CCCCC3)c(-c3ccc4occc4c3)cnc12", "target": "RNA-dependent RNA polymerase", "endpoint": "IC50", "organism": "Hepatitis C virus", "value": "1–10 µM"}
{"SMILES": "Cc1ccccc1S(=O)(=O)Nc1cc(CCc2ccccc2)sc1C(=O)O", "target": "NS3 ATPase", "endpoint": "IC50", "organism": "Hepatitis C virus", "value": "5–20 µM"}
{"SMILES": "COC(=O)[C@@H]1CCCN1c1nc(Nc2ccc3cn[nH]c3c2)nc(OC)n1", "target": "Nonstructural protein 5B", "tested at": "1 µg/mL", "endpoint": "inhibition", "organism": "Hepatitis C virus", "value": "10%"}
{"SMILES": "CNC(=O)c1c(-c2ccc(F)cc2)oc2cc(N(C)S(C)(=O)=O)c(OCC(C)O)cc12", "target": "Nonstructural protein 5B", "endpoint": "IC50", "organism": "Hepatitis C virus", "value": "≤0.5 µM"}
{"SMILES": "FC(F)(F)c1cccc(COc2cccc(-c3cnc4c(-c5nn[nH]n5)cnn4c3C3CCCCC3)c2)c1", "target": "RNA-dependent RNA polymerase", "endpoint": "IC50", "organism": "Hepatitis C virus", "value": "1–10 µM"}
{"SMILES": "CNC(=O)c1c(-c2ccc(F)cc2)oc2cc(NS(C)(=O)=O)c(-c3cccs3)cc12", "target": "Nonstructural protein 5B", "endpoint": "IC50", "organism": "Hepatitis C virus", "value": "≤0.5 µM"}
{"SMILES": "O=C(O)c1ccc2c(c1)nc(-c1ccc3nc(-c4cc([N+](=O)[O-])ccc4-c4ccc(Cl)cc4)ccc3c1)n2C1CCCCC1", "target": "NS5B polymerase", "tested at": "100 µM", "endpoint": "inhibition", "organism": "Hepatitis C virus", "value": "97.03%"}
{"SMILES": "O=C(COc1ccccc1)Nc1ccsc1-c1nc(C(=O)O)c(O)c(=O)[nH]1", "target": "HCV polymerase", "endpoint": "IC50", "organism": "Hepatitis C virus", "value": "<25 µM"}
{"SMILES": "Cc1cc(-c2ccccc2)nc2ccc(-c3nc4cc(C(=O)O)ccc4n3C3CCCCC3)cc12", "target": "NS5B polymerase", "tested at": "100 µM", "endpoint": "inhibition", "organism": "Hepatitis C virus", "value": "100%"}
{"SMILES": "CS(=O)c1ccc(-c2cnc3c(-c4nn[nH]n4)cnn3c2C2CCCCC2)cc1", "target": "RNA-dependent RNA polymerase", "endpoint": "IC50", "organism": "Hepatitis C virus", "value": ">10 µM"}
{"SMILES": "O=C(O)C1Cc2ccccc2CN1C(=O)c1ccc2c(c1)nc(-c1ccc3nc(-c4ccccc4)cnc3c1)n2C1CCCCC1", "target": "NS5B polymerase", "tested at": "33 µM", "endpoint": "inhibition", "organism": "Hepatitis C virus", "value": "94.81%"}
{"SMILES": "CC(C)=CCCc1c(-c2ccc(OCc3ccccc3)cc2)nc2cc(C(=O)O)[nH]n2c1=O", "target": "RNA-dependent RNA polymerase", "endpoint": "IC50", "organism": "Hepatitis C virus", "value": "<1 µM"}
{"SMILES": "COc1nc(Nc2ccc3cn[nH]c3c2)nc(N2CCC(O)CC2)n1", "target": "DNA polymerase", "tested at": "1 µg/mL", "endpoint": "inhibition", "organism": "Hepatitis B virus", "value": "48%"}
{"SMILES": "CN(C(=O)c1ccc2ccccc2c1)c1cc(-c2ccccc2)sc1C(=O)O", "target": "NS3 ATPase", "endpoint": "IC50", "organism": "Hepatitis C virus", "value": "5–20 µM"}
{"SMILES": "COc1ccc(-c2ccc(Cl)cc2)c(-c2ccc3cc(-c4nc5cc(C(=O)O)ccc5n4C(C)C)ccc3n2)c1", "target": "NS5B polymerase", "tested at": "33 µM", "endpoint": "inhibition", "organism": "Hepatitis C virus", "value": "99.42%"}
{"SMILES": "O=C(Nc1cccc(-c2nc(C(=O)O)c(O)c(=O)[nH]2)c1)Nc1c(Cl)cncc1Cl", "target": "HCV polymerase", "endpoint": "IC50", "organism": "Hepatitis C virus", "value": "<100 µM"}
{"SMILES": "CNC(=O)c1c(-c2ccc(F)cc2)oc2cc(N(C)S(C)(=O)=O)c(OCCN3CCOCC3)cc12", "target": "Nonstructural protein 5B", "endpoint": "IC50", "organism": "Hepatitis C virus", "value": "≤0.5 µM"}
{"SMILES": "O=C(N[C@@H](Cc1c[nH]c2ccccc12)C(=O)O)c1cnn2c(C3CCCCC3)c(-c3ccc(Cl)cc3)cnc12", "target": "RNA-dependent RNA polymerase", "endpoint": "IC50", "organism": "Hepatitis C virus", "value": "<1 µM"}
{"SMILES": "C=CCN(C(=O)Cc1ccc(Cl)cc1)c1cc(-c2ccccc2)sc1C(=O)O", "target": "NS3 ATPase", "endpoint": "IC50", "organism": "Hepatitis C virus", "value": "5–20 µM"}
{"SMILES": "CNC(=O)c1c(-c2ccc(F)cc2)oc2cc(C)c(OC(C)C)cc12", "target": "Nonstructural protein 5B", "endpoint": "IC50", "organism": "Hepatitis C virus", "value": "≤0.5 µM"}
{"SMILES": "C[C@H](C(=O)Nc1ccsc1-c1nc(C(=O)O)c(O)c(=O)[nH]1)c1ccccc1", "target": "HCV polymerase", "endpoint": "IC50", "organism": "Hepatitis C virus", "value": "<25 µM"}
{"SMILES": "O=C(O)c1cc2nc(-c3ccc(Cl)cc3)cc(-c3ccc(-c4ccccc4)cc3)n2n1", "target": "RNA-dependent RNA polymerase", "endpoint": "IC50", "organism": "Hepatitis C virus", "value": "1–10 µM"}
{"SMILES": "O=C(Cc1cccc(Br)c1)Nc1ccsc1-c1nc(C(=O)O)c(O)c(=O)[nH]1", "target": "HCV polymerase", "endpoint": "IC50", "organism": "Hepatitis C virus", "value": "<25 µM"}
{"SMILES": "CN(C(=O)c1cc(Cl)cc(Cl)c1)c1cc(-c2ccccc2)sc1C(=O)O", "target": "NS3 ATPase", "endpoint": "IC50", "organism": "Hepatitis C virus", "value": "5–20 µM"}
{"SMILES": "O=C(O)c1ccc2c(c1)nc(-c1ccc3nc(-c4cc(Br)ccc4O)ccc3c1)n2C1CCCCC1", "target": "NS5B polymerase", "tested at": "33 µM", "endpoint": "inhibition", "organism": "Hepatitis C virus", "value": "97.99%"}
{"SMILES": "Cc1ccc(S(=O)(=O)Nc2cc(-c3ccc(C(N)=O)cc3)sc2C(=O)O)c(C)c1", "target": "NS3 ATPase", "endpoint": "IC50", "organism": "Hepatitis C virus", "value": "<5 µM"}
{"SMILES": "CC(C)[C@H](NC(=O)c1ccc2cc(-c3nc4cc(C(=O)O)ccc4n3C3CCCCC3)ccc2n1)C(N)=O", "target": "NS5B polymerase", "tested at": "33 µM", "endpoint": "inhibition", "organism": "Hepatitis C virus", "value": "78.44%"}
{"SMILES": "COc1cccc(-c2ccccc2-c2ccnc3cc(C(=O)O)nn23)c1", "target": "RNA-dependent RNA polymerase", "endpoint": "IC50", "organism": "Hepatitis C virus", "value": ">10 µM"}
{"SMILES": "CC(C)C(NC(=O)c1ccc2c(c1)nc(-c1ccc3nc(-c4ccccc4)cnc3c1)n2C1CCCCC1)C(=O)O", "target": "NS5B polymerase", "tested at": "33 µM", "endpoint": "inhibition", "organism": "Hepatitis C virus", "value": "81.02%"}
{"SMILES": "COc1nc(Nc2ccc3cn[nH]c3c2)nc(NN2CCOCC2)n1", "target": "Nonstructural protein 5B", "tested at": "0.1 µg/mL", "endpoint": "inhibition", "organism": "Hepatitis C virus", "value": "10%"}
{"SMILES": "O=C(Nc1cccc(-c2nc(C(=O)O)c(O)c(=O)[nH]2)c1)NC(c1ccccc1)c1ccccc1", "target": "HCV polymerase", "endpoint": "IC50", "organism": "Hepatitis C virus", "value": "<100 µM"}
{"SMILES": "O=C(O)c1ccc2c(c1)nc(-c1ccc3nc(-c4ccccc4)c(-c4ccccc4)nc3c1)n2C1CCCCC1", "target": "NS5B polymerase", "tested at": "33 µM", "endpoint": "inhibition", "organism": "Hepatitis C virus", "value": "97.29%"}

Repeating the final 5 entries:

COc1cccc(-c2ccccc2-c2ccnc3cc(C(=O)O)nn23)c1 ; target: RNA-dependent RNA polymerase ; endpoint: IC50 ; organism: Hepatitis C virus ; value: >10 µM
CC(C)C(NC(=O)c1ccc2c(c1)nc(-c1ccc3nc(-c4ccccc4)cnc3c1)n2C1CCCCC1)C(=O)O ; target: NS5B polymerase ; tested at: 33 µM ; endpoint: inhibition ; organism: Hepatitis C virus ; value: 81.02%
COc1nc(Nc2ccc3cn[nH]c3c2)nc(NN2CCOCC2)n1 ; target: Nonstructural protein 5B ; tested at: 0.1 µg/mL ; endpoint: inhibition ; organism: Hepatitis C virus ; value: 10%
O=C(Nc1cccc(-c2nc(C(=O)O)c(O)c(=O)[nH]2)c1)NC(c1ccccc1)c1ccccc1 ; target: HCV polymerase ; endpoint: IC50 ; organism: Hepatitis C virus ; value: <100 µM
O=C(O)c1ccc2c(c1)nc(-c1ccc3nc(-c4ccccc4)c(-c4ccccc4)nc3c1)n2C1CCCCC1 ; target: NS5B polymerase ; tested at: 33 µM ; endpoint: inhibition ; organism: Hepatitis C virus ; value: 97.29%

Two numbers with a dash give a range or band. Neighbouring rows are from separate reports. ICn is the concentration giving n% inhibition.